1 sequence from paper PMC7913695, “Mechanism of DNA cleavage by the endonuclease SauUSI: a major barrier to horizontal gene transfer and antibiotic resistance in Staphylococcus aureus” can be followed below.

A weaker result is weaker than the reference pair of the same experiment. Protein sequences can lack the tags named with them.

This data set deals with T1, SauUSI (Staphylococcus aureus) (UniProt Q2FVC3).
T1 sequence (looked up, limits assumed): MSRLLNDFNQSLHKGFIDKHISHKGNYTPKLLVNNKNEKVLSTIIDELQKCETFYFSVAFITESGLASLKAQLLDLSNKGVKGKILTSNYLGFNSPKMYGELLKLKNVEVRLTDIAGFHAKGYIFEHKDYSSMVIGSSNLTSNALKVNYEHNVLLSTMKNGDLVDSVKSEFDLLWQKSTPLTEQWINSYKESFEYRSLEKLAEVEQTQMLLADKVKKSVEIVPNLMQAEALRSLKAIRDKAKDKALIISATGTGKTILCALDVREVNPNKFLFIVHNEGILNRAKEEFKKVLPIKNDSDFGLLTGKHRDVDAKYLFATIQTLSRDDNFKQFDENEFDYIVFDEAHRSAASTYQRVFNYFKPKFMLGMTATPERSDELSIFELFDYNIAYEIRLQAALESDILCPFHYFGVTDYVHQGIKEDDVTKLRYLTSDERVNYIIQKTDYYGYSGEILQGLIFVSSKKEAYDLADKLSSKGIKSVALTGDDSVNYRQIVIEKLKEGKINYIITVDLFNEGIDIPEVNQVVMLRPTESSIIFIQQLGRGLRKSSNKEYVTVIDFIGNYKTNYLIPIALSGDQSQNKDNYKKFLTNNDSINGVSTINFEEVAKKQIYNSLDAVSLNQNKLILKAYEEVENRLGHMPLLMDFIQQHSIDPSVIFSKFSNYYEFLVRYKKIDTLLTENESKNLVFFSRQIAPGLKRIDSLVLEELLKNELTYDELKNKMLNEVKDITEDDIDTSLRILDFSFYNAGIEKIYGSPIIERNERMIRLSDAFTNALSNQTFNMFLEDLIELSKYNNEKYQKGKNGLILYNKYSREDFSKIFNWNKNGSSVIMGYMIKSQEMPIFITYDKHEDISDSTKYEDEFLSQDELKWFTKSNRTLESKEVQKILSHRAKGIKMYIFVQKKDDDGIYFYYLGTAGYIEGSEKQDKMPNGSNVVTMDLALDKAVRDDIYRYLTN
The data set can be described thus: EMSA. To be noted: 250 nM DNA, shift first detected at 0.8 uM SauUSI (0.05-1.6 uM tested); Protein and DNA incubated 20 min on ice; 5% native PAGE, ethidium bromide stain; binding buffer, salt and pH not stated; recombinant protein; protein details: His-tag (HisTrap purified).

“GCCGCGGATCCTTCACAAGACGATTACCGGCGCTGAAAGACCAGCATATGCAATTTGACT (double strand) [EMSA non-methylated 60 bp (non-specific DNA)]”: the binding result is recorded as “binds more weakly”.
